Pooled drug test results. Numbers come from NIAID ChemDB, via PubChem.

All rows: whole-cell or culture tests; agent: Sindbis virus; read by: cytopathic effect; measure: EC50

Conditions beyond the fields shown may differ between rows. ECn: concentration that inhibits the pathogen or its effect by n%.

compound,cells,value
Cc1nc(CC(O)CO)c2nc[nH]c(=O)n12,VERO,>400 µg/mL
C=C(N=CC)c1nc(-c2ccc(OC)cc2)n([C@@H]2O[C@H](CO)[C@@H](O)[C@H]2O)n1,VERO,>100 µg/mL
Nc1ncnc2c1ncn2C[C@H](O)CO,VERO,>400 µg/mL
CC=NC(=N)c1nc(-c2ccc(C)cc2)n(C/C=C/c2ccccc2)n1,VERO,>10 µg/mL
NC(=O)c1cncc([C@H]2O[C@H](CO)[C@H](O)[C@@H]2O)c1,VERO,≥100 µg/mL
Nn1c(-c2cn(-c3ccccc3)nc2-c2ccccc2)n[nH]c1=S,VERO,>16 µg/mL
Nc1ncnc2c1ncn2[C@@H]1O[C@H](C=NO)[C@@H](O)[C@H]1O,VERO,>0.4 µg/mL
c1ccc(-c2nn3c(-c4cn(-c5ccccc5)nc4-c4ccccc4)nnc3s2)cc1,VERO,>16 µg/mL
C=CCc1nc(C)n2c(=O)[nH]c(NC(C)=O)nc12,VERO,>200 µg/mL
Nc1ncnc2c1ncn2[C@H]1C[C@H](O)[C@@H](C=O)O1,VERO,>200 µg/mL
CC1(C)[C@@H](CO)CC[C@@]1(C)Cn1cnc2c(N)ncnc21,VERO,>400 µg/mL
CC=NC(=N)c1nc(-c2cccc(OC)c2)n(COCCO)n1,VERO,>100 µg/mL
CC(C)CS[C@@H]1C[C@H](n2cnc3c(N)ncnc32)[C@@H](O)[C@H]1O,HeLa,>80 µg/mL
CC1(C)[C@@H](CCO)C[C@H]1n1cnc2c(N)ncnc21,VERO,>400 µg/mL
COCC1=C[C@@H](n2cnc3c(N)ncnc32)[C@H](O)[C@@H]1O,VERO,70 µg/mL
CC1(C)[C@@H](CCO)C[C@H]1n1nnc2c(N)nc(N)nc21,VERO,>400 µg/mL
CC(Sc1ncnc2c1cnn2COCCO)C(N)=O,VERO,>400 µg/mL
Nc1ccn(C(CF)CCCO)c(=O)n1,VERO,>400 µg/mL
CCOC(=O)CSc1nnc(-c2cn(-c3ccccc3)nc2-c2ccccc2)n1N,VERO,>16 µg/mL
Nc1ncnc2c1ncn2[C@@H]1C=C(CO)[C@@H](O)[C@H]1O,VERO,>40 µg/mL
CC1(C)[C@@H](CCO)C[C@H]1n1nnc2c(Cl)nc(N)nc21,VERO,>200 µg/mL
CC1=C[C@@H](n2cnc3c(N)ncnc32)[C@H](O)[C@@H]1O,VERO,>200 µg/mL
C=C(N=CC)c1nc(-c2ccc(C)cc2)n(C2O[C@H](CO)[C@@H](O)[C@H](O)[C@H]2O)n1,VERO,>100 µg/mL
S=c1[nH]n2c(-c3cn(-c4ccccc4)nc3-c3ccccc3)nnc2s1,VERO,>80 µg/mL
Nc1ccn([C@@H]2C=C(CO)[C@@H](O)[C@H]2O)c(=O)n1,VERO,0.2 µg/mL
Nc1ncnc2c1ncn2[C@@H]1C=C(CO)[C@@H](O)[C@H]1O,VERO,7 µg/mL
Nc1ncnc2c1ncn2[C@@H]1C=C(CO)[C@@H](O)[C@H]1O,VERO,7 µg/mL
Nc1ncnc2c1ncn2C1CC(COP(=O)(O)O)[C@@H](O)[C@H]1O,VERO,≥10 µg/mL
OC[C@H]1O[C@H](c2cncc(Br)c2)[C@@H](O)[C@@H]1O,VERO,≥100 µg/mL
Nc1ncnc2c1ncn2[C@H]1C[C@H](O)[C@@H](/C=N/O)O1,VERO,>100 µg/mL
CC(Sc1ncnc2c1cnn2COCC(O)CO)C(N)=O,VERO,>400 µg/mL
Cc1nn2c(-c3cn(-c4ccccc4)nc3-c3ccccc3)nnc2s1,VERO,>3.2 µg/mL
Cc1cn(CCCC(O)CF)c(=O)[nH]c1=O,VERO,>400 µg/mL
NC(=O)CSc1ncnc2c1cnn2COCC(O)CO,VERO,>400 µg/mL
OC[C@H]1O[C@@H](c2cncc(Br)c2)[C@@H](O)[C@H]1O,VERO,≥100 µg/mL
C=CCc1nc(C)n2c(=O)[nH]c(=S)[nH]c12,VERO,>200 µg/mL
CC1(C)[C@@H](CO)CC[C@@]1(C)Cn1cnc2c(=O)[nH]cnc21,VERO,>400 µg/mL
C#C[C@@H](O)C1=C[C@@H](n2cnc3c(N)ncnc32)[C@H](O)[C@@H]1O,VERO,>400 µg/mL
CC(=O)Nn1c(-c2cn(-c3ccccc3)nc2-c2ccccc2)n[nH]c1=S,VERO,>80 µg/mL
CC1(C)[C@@H](CO)CC[C@@]1(C)Cn1cc(Br)c(=O)[nH]c1=O,VERO,>400 µg/mL
CC[C@@H](O)C1=C[C@@H](n2cnc3c(N)ncnc32)[C@H](O)[C@@H]1O,VERO,>400 µg/mL
NC(=O)c1cncc([C@@H]2O[C@H](CO)[C@H](O)[C@@H]2O)c1,VERO,≥100 µg/mL
Nc1ncnc2c1ncn2[C@@H]1C[C@H](COP(=O)(O)O)[C@@H](O)[C@H]1O,VERO,>200 µg/mL
CC=NC(=N)c1nc(-c2ccccc2)n(C/C=C/c2ccccc2)n1,VERO,>4 µg/mL
Nc1ncnc2c1ncn2[C@@H]1O[C@H](/C=N/O)[C@@H](O)[C@@H]1O,VERO,>40 µg/mL
CCOC(=O)C1=CSc2nnc(-c3cn(-c4ccccc4)nc3-c3ccccc3)n2N=C1N,VERO,>16 µg/mL
CC=NC(=N)c1nc(-c2cccc(C)c2)n(C/C=C/c2ccccc2)n1,VERO,>10 µg/mL

The first 3 rows once more:

compound	cells	value
Cc1nc(CC(O)CO)c2nc[nH]c(=O)n12	VERO	>400 µg/mL
C=C(N=CC)c1nc(-c2ccc(OC)cc2)n([C@@H]2O[C@H](CO)[C@@H](O)[C@H]2O)n1	VERO	>100 µg/mL
Nc1ncnc2c1ncn2C[C@H](O)CO	VERO	>400 µg/mL